# In the supplement of paper PMC12637763:
# Residue numbers refer to the chain shown, from its start. This is one part of the list. Env chains of viruses from a treatment-interruption trial, translated from the printed DNA. IC50 / IC80 of two broadly neutralizing antibodies; lower = more sensitive virus; >50 µg/ml means not reached and <0.001 µg/ml is below the lowest dose. No active / inactive call.
# B1: HIV-1 Env, rebound clone, placebo arm (protein)
# chain: MKVRGTKVNWQHLWWRWGTMLLGMLMICKATEEKWVTVYYGVPVWKEATTTLFCASDAKAYEKEAHNVWATHACVPTDPSPQEVVLENVTENFNMWKNNMVEQMHEDIISLWDQSLKPCVKLTPLCVTLNCTDYTNSNSTNHTNSNSSSPTPTAGGEIKNCSFNITTNIRDKIKKEHALFYSLDVVQIDINDNTSYRLISCNTSVITQACPKTTFEPIPIYYCAPAGFAILKCNNKTFDGKGPCKNVSTVQCTHGIRPVVSTQLLLNGSLAEKEIVIRSDNFSDNTKNIIVQLKDPVVINCTRPNNNTRKGIHIGPGRAFYATGKVIGDIRQAYCNISKEEWNKTLGQIVKKLGAQFGNKTTMIFNQSSGGDPEIVTHSFNCGGEFFYCNTSALFNSTWSSNDGNGTWNKTNSTETNSTEIILQCRIKQIVNMWQEVGKAMYAPPIKGPIRCSSNITGLILTRDGGNNTGNNSETFRPAGGNMRDNWRSELYKYKIVKIEPLGIAPTKAKRRTVQREKRAVTMGAMFLGFLGAAGSTMGAASLTLTVQARQLLSGIVQQQNNLLRAIEAQQHLLQLTVWGIKQLQARVLAVERYLADQRFLGIWGCSGKLICTTTVPWNNSWSNKSLDSIWNNMTWMQWEKEIENYTGEIYNLIEQAQNQQEQNERELLELDKWASLWNWFDISNWLWYIKIFIMIVGGLIGLRIVFAVLSIVNRVRQGYSPLSLQTLLPTPRGPDRPEGIEGEGGERDRDTSIRLVDGFLALFWDDLRNLCLFSYRHLRDLLLIAARIVELLGLRGWEILKYLWNLLLYWSQELKNSAISLLDATAIAVAEGTDRIIEAVRRFCRGVLHIPRRIRQGFERALQ
# B2: HIV-1 Env, rebound clone, placebo arm (protein)
# chain: MRVKGIMRNYQHLWRWGIMLLGMLMICNATEKLWVTVYYGVPVWKEATTTLFCASDAKAYDTEAHNVWATHACVPTDPDPQEVVLENVTENFNAWKNDMVEQMHEDIISLWDQSLKPCVKLTPLCVTLECTDNVNCTGTNCTGVKDTNDTNNANLIMEKGEMKNCSFNITTNIRDKVDRQYALFYKLDIVQIEDNNTNTYRLISCNTSVITQACPKVSFEPIPIHYCAPAGFAILKCKDKGFSGKGTCKNVSTVQCTHGIRPVVSTQLLLNGSLAEKEVVIRSNNLTNNAETIIVQLSKTIQINCTRPNNNTRKGIHIGPGRAFYATGEIIGDIRQAHCNISGKDWNEALKWIAGKLKEKFNKTIVFRPPIRGGDPEIVMHTFNCGGEFFYCNTTKLFNSTHNDTHDTAINNTTITLPCKIKQIINMWQEVGKAMYAPPIRGNISCSSNITGLLLIRDGGNTSTNETFRPGGGNMKDNWRSELYKYKVVKIEPLGVAPTKAKRRVVQREKRAMGLGALFLGFLGAAGSTMGAASVTLTVQARQLLSGIVQQQNNLLRAIEAQQHMLQLTVWGIKQLQARVLAVERYLKDQQLLGIWGCSGKLICTTSVPWNTSWSNKSYHQIWENMTWMQWEKEIDNYTGIIYTLIEESQTQQEMNEKELLELDKWAGLWNWFSITNWLWYIRIFIMIVGGLIGLRIVFAVLSIVKRVRQGYSPLSFQTLFPTQRGPDRPGEIEEEGGEQDRGRSIRLVDGFLALFWDDLRSLCLFSYHRLRDLLLIVARIVELLGRRGWEILKYWWSLLQYWSQELKNSAISLLNTTAIIVGEGTDRVIETAQRVVRAFLHIPRRIRQGFERALQ
# B3: HIV-1 Env, rebound clone, placebo arm (protein)
# chain: MRVKGIMRNYQHLWRWGIMLLGMLMICNATEKLWVTVYYGVPVWKEATTTLFCASDAKAYDTEAHNVWATHACVPTDPDPQEVVLENVTEDFNAWKNDMIEQMHEDIISLWDQSLKPCVKLTPLCVTLECTDNVNCTGTNCTGVKDTNDTNNANLIMEKGEMKNCSFNITTNIRDKVDRQYALFYKLDIVQIEDNNTNTYRLISCNTSVITQACPKISFEPIPIHYCAPAGFAILKCKDKGFSGKGTCKNVSTVQCTHGIRPVVSTQLLLNGSLAEKEVVIRSNNLTNNAETIIVQLSKTIQINCTRPNNNTRKGIHIGPGRAFYATGEIIGDIRQAHCNISRKDWNEALKGIAGKLKEKFNKTIVFRPPIRGGDPEIVMHTFNCGGEFFYCNTTKLFNSTHNGNDTHDTAINNTTITLPCKIKQIINMWQEVGKAMYAPPIRGNISCSSNITGLLLIRDGGNTSTNETFRPGGGNMKDNWRSELYKYKVVKIEPLGVAPTKAKRRVVQREKRAMGLGALFLGFLGAAGSTMGAASVTLTVQARQLLSGIVQQQNNLLRTIEAQQHMLQLTVWGIKQLQARVLAVERYLKDQQLLGIWGCSGKLICTTSVPWNTSWSNKSYHQIWENMTWMQWEKEIDNYTGIIYTLIEESQTQQEMNEKELLELDKWASLWNWFSITNWLWYIRIFIMIVGGLIGLRIVFAVLSIVKRVRQGYSPLSFQTLFPAQRGPDRPGGIEEEGGEQDRGRSIRLVDGFLALFWDDLRSLCLFSYHRLRDLLLIVARIVELLGRRGREILKYWWSLLQYWSQELKNSAISLLNTTAIIVGEGTDRVIETAQIVVRAFLHIPRRIRQGFERALQ
# B4: HIV-1 Env, rebound clone, placebo arm (protein)
# chain: B3 chain with R792W
# B5: HIV-1 Env, rebound clone, placebo arm (protein)
# chain: B2 chain with R15K, G668S
# B6: HIV-1 Env, rebound clone, placebo arm (protein)
# chain: B2 chain with N412K
# Assays:
# [1] = target: antibody 10-1074; test: neutralization IC50; higher = virus less sensitive to the antibody
# Method: (§1)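 Pseudovirus bearing the Env chain mixed with antibody, from 50 µg/ml in fivefold dilutions, on TZM-bl reporter cells, in duplicate.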
# [2] = target: antibody 3BNC117; test: as above
# Method: as §1
# [3] = target: antibody 10-1074; test: neutralization IC80; higher = virus less sensitive to the antibody
# Method: as §1
# [4] = target: antibody 3BNC117; test: as above
# Method: as §1
binder,measurement,setting,value
B1,neutralization IC50,[1],0.01 µg/mL
same,neutralization IC50,[2],0.202 µg/mL
same,neutralization IC80,[3],0.054 µg/mL
same,neutralization IC80,[4],1.01 µg/mL
B2,neutralization IC50,[1],0.161 µg/mL
same,neutralization IC50,[2],0.103 µg/mL
same,neutralization IC80,[3],0.557 µg/mL
same,neutralization IC80,[4],0.447 µg/mL
B3,neutralization IC50,[1],0.135 µg/mL
same,neutralization IC50,[2],0.066 µg/mL
same,neutralization IC80,[3],0.647 µg/mL
same,neutralization IC80,[4],0.26 µg/mL
B4,neutralization IC50,[1],0.156 µg/mL
same,neutralization IC50,[2],0.067 µg/mL
same,neutralization IC80,[3],0.714 µg/mL
same,neutralization IC80,[4],0.254 µg/mL
B5,neutralization IC50,[1],0.106 µg/mL
same,neutralization IC50,[2],0.091 µg/mL
same,neutralization IC80,[3],0.519 µg/mL
same,neutralization IC80,[4],0.343 µg/mL
B6,neutralization IC50,[1],0.114 µg/mL
same,neutralization IC50,[2],0.075 µg/mL
same,neutralization IC80,[3],0.534 µg/mL
same,neutralization IC80,[4],0.29 µg/mL
